A mixed list of measured activities; the numbers were collected in NIAID ChemDB.

Common to all: whole-cell or culture tests; agent: HIV-2; method: syncytia; measure: EC50

ECn is the concentration giving n% inhibition of infection, replication or growth.

| smiles | strain or isolate | cell line | result |
|---|---|---|---|
| Cc1cn([C@@H]2O[C@H](CO[Si](C)(C)C(C)(C)C)C3(OS(=O)(=O)C=C3N)[C@H]2O[Si](C)(C)C(C)(C)C(C)C)c(=O)n(C)c1=O | ROD | CEM | >30 µM |
| Cc1cn([C@H]2C[C@H](N=[N+]=[N-])[C@@H](CN3C(=S)c4ccccc4C3=S)O2)c(=O)[nH]c1=O | ROD | CEM | 4.3 µM |
| Nc1nc(N)c(Cc2c(N)nc(N)nc2OCCOCP(=O)(O)O)c(OCCOCP(=O)(O)O)n1 | ROD | CEM | 50 µM |
| Cc1cn([C@H]2C[C@H](N=[N+]=[N-])[C@@H](CN3C(=O)c4cc(Cl)c(Cl)cc4C3=O)O2)c(=O)[nH]c1=O | ROD | CEM | 17 µM |
| CC(C)(C)[Si](C)(C)OC[C@H]1O[C@@H](n2ccc(=O)n(CC(=O)O)c2=O)[C@H](O[Si](C)(C)C(C)(C)C)[C@@H]1O | ROD | CEM | >10 µM |
| CCCCCCCCCCCCOP(=O)(O)OC[C@H]1O[C@@H](n2cc(C)c(=O)[nH]c2=O)C[C@@H]1N=[N+]=[N-] | ROD | CEM + CEM/O | 0.64 µM |
| OB(O)c1ccc(Cl)cc1 | ROD | CEM | >50 µM |
| Cc1cn([C@H]2C[C@H](N=[N+]=[N-])[C@@H](CN3C(=O)c4ccc([N+](=O)[O-])cc4C3=O)O2)c(=O)[nH]c1=O | ROD | CEM | 14.1 µM |
| CCC(C)C(NP(=O)(OC[C@@H]1C=C[C@H](n2cc(C)c(=O)[nH]c2=O)O1)Oc1ccccc1)C(=O)OC | ROD | CEM + CEM TK- | 2.5 µM |
| C[C@H](Cn1cnc2c(N)ncnc21)OCP(=O)(O)O | ROD | CEM | 1.4 µM |
| Cc1cn([C@H]2C[C@H](N=[N+]=[N-])[C@@H](CN3C(=O)c4c(F)c(F)c(F)c(F)c4C3=O)O2)c(=O)[nH]c1=O | ROD | CEM + CEM TK- | >200 µM |
| Nc1nc(NC2CC2)c2ncn([C@H]3C=C[C@@H](COP4(=O)OCc5ccccc5O4)C3)c2n1 | ROD | CEM | 1.1 µM |
| Cc1cn([C@H]2C=C[C@@H](COP3(=O)OCc4ccc5ccccc5c4O3)O2)c(=O)[nH]c1=O | ROD | CEM + CEM TK- | 0.2 µM |
| Cc1cccc2c1OP(=O)(OC[C@@H]1C=C[C@H](n3cc(C)c(=O)[nH]c3=O)O1)OC2 | LAV-2 | CEM + CEM TK- | 0.55 µM |
| Cc1cn([C@H]2C=C[C@@H](CO[Si](C)(C)C(C)(C)C)O2)c(=O)n(CC(=O)O)c1=O | ROD | CEM | >50 µM |
| Cc1cn([C@H]2C=C[C@@H](COP3(=O)OCc4cccc(CCC(=O)O)c4O3)O2)c(=O)[nH]c1=O | LAV-2 | CEM + CEM TK- | 20 µM |
| CO[Si](OC[C@H]1O[C@@H](n2cc(C)c(=O)n(C)c2=O)[C@H](O[Si](C)(C)C(C)(C)C)C12OS(=O)(=O)C=C2N)(c1ccccc1)C(C)(C)C | ROD | CEM | >6.6 µM |
| Cc1cn([C@@H]2O[C@H](COC(=O)c3ccccc3)[C@@H](O)[C@H]2OC(=O)c2ccccc2)c(=O)n(CC(=O)O)c1=O | ROD | CEM | >50 µM |
| Cc1cn([C@H]2C=C[C@@H](COP3(=O)OCc4c(ccc5ccccc45)O3)O2)c(=O)[nH]c1=O | ROD | CEM + CEM/O | 0.14 µM |
| OB(O)c1ccc(F)cc1 | ROD | CEM | >250 µM |
| Nc1cc(OCCOCP(=O)(O)O)nc(N)n1 | ROD | CEM | 1.6 µM |
| CCCCCCCCCCCCOCCOP(=O)(O)OC[C@H]1O[C@@H](n2cc(C)c(=O)[nH]c2=O)C[C@@H]1N=[N+]=[N-] | ROD | CEM + CEM/O | 0.133 µM |
| Cc1cn([C@H]2C[C@H](N=[N+]=[N-])[C@@H](CO)O2)c(=O)[nH]c1=O | ROD | CEM | 0.006 µM |
| O=Cc1ccc(B(O)O)cc1 | ROD | CEM | >50 µM |
| CC(C)(C)[Si](C)(C)OC[C@H]1O[C@@H](n2cnc3c(=O)n(CC(=O)O)cnc32)[C@H](O[Si](C)(C)C(C)(C)C)[C@@H]1O | ROD | CEM | 15 µM |
| OB(O)c1ccccc1COc1c(F)cccc1F | ROD | CEM | >50 µM |
| COc1ccc2c(c1)COP(=O)(OC[C@@H]1C=C[C@H](n3cnc4c(NC5CC5)nc(N)nc43)C1)O2 | ROD | CEM | 2 µM |
| Cc1cn([C@@H]2O[C@H](COC(=O)C(C)(C)C)C3(OS(=O)(=O)C=C3N)[C@H]2O[Si](C)(C)C(C)(C)C)c(=O)[nH]c1=O | ROD | MT-4 | >35 µM |
| O=CN(CCC(=O)O)c1ccc(B(O)O)cc1 | ROD | CEM | >250 µM |
| Cc1cn([C@@H]2O[C@H](COCc3ccccc3)C3(OS(=O)(=O)C(Cc4ccccc4)=C3NCc3ccccc3)[C@H]2O[Si](C)(C)C(C)(C)C)c(=O)n(C)c1=O | ROD | CEM | >130 µM |
| Cc1cn([C@@H]2O[C@H](CO[Si](C)(C)C(C)(C)C)[C@@H](O)[C@H]2O[Si](C)(C)C(C)(C)C)c(=O)n(CC(=O)O)c1=O | ROD | CEM | >10 µM |
| Cc1cn([C@H]2C=C[C@@H](CO)O2)c(=O)[nH]c1=O | LAV-2 | CEM + CEM TK- | 15 µM |
| Cc1cn([C@@H]2O[C@H](CO[Si](C)(C)C(C)(C)C(C)C)C3(OS(=O)(=O)C=C3N)[C@H]2O[Si](C)(C)C(C)(C)C)c(=O)n(C)c1=O | ROD | CEM | >60 µM |
| Cc1cn([C@H]2C=C[C@@H](COP3(=O)OCc4cc5ccccc5cc4O3)O2)c(=O)[nH]c1=O | ROD | CEM + CEM TK- | 7 µM |
| Cc1cn([C@@H]2O[C@H](CO[Si](C(C)(C)C)(C(C)(C)C)C(C)(C)C)C3(OS(=O)(=O)C=C3N)[C@H]2O[Si](C)(C)C(C)(C)C)c(=O)n(C)c1=O | ROD | CEM | >12 µM |
| OB(O)c1ccccc1CN1CCSCC1 | ROD | CEM | >50 µM |
| Nc1nc2c(ncn2COCCOP2(=O)OCc3ccccc3O2)c(=O)[nH]1 | ROD | CEM | ≥50 µM |
| COc1ccc(C=O)cc1B(O)O | ROD | CEM | ≥250 µM |
| Nc1nc2c(ncn2COCCO)c(=O)[nH]1 | ROD | CEM | >250 µM |
| CC[C@@]1(O)C(=O)OCc2c1cc1n(c2=O)Cc2c-1nc1ccccc1c2CO | CBL-20 | C8166 | 0.0005 µg/mL |
| N[C@@H](CCC(=O)Nc1ccc(B(O)O)cc1)C(=O)O | ROD | CEM | >50 µM |
| COC(=O)CCNP(=O)(OC[C@@H]1C=C[C@H](n2cc(C)c(=O)[nH]c2=O)O1)Oc1ccccc1 | ROD | CEM + CEM TK- | 7 µM |
| Cc1cn([C@@H]2O[C@H](COCc3ccccc3)C3(OS(=O)(=O)C=C3NC(=O)c3ccccc3)[C@H]2OC(=O)c2ccccc2)c(=O)[nH]c1=O | ROD | CEM | >40 µM |
| Cc1cn([C@@H]2O[C@H](CO[Si](C)(C)C(C)(C)C)[C@@H](O[Si](C)(C)C(C)(C)C)[C@H]2O)c(=O)n(CC(=O)ON)c1=O | ROD | CEM | >2 µM |
| CCCCCCCCCCCCCCOP(=O)(O)OC[C@H]1O[C@@H](n2cc(C)c(=O)[nH]c2=O)C[C@@H]1N=[N+]=[N-] | ROD | CEM + CEM/O | 0.92 µM |

4 of the rows above, restated:

smiles | strain or isolate | cell line | result
OB(O)c1ccccc1CN1CCSCC1 | ROD | CEM | >50 µM
Nc1cc(OCCOCP(=O)(O)O)nc(N)n1 | ROD | CEM | 1.6 µM
OB(O)c1ccc(Cl)cc1 | ROD | CEM | >50 µM
COC(=O)CCNP(=O)(OC[C@@H]1C=C[C@H](n2cc(C)c(=O)[nH]c2=O)O1)Oc1ccccc1 | ROD | CEM + CEM TK- | 7 µM

Lines come from different laboratories, so protocols vary.